Laboratory results as given in the NIST ThermoML archive (doi:10.1021/acs.jced.5b00343).
Numbers after ± are expanded uncertainties.

Assay: refractive index (Na D-line) (dimensionless); xn = mol fraction of the nth substance listed
Details: 101 kPa, Liquid, Standard Abbe refractometry

CCCCOP(=O)(OCCCC)OCCCC [tributyl phosphate] + CCCCO
refractive index
Details | 303.15 K | 308.15 K | 313.15 K | 318.15 K | 323.15 K
x1 = 0.05 | 1.3978 ± 0.0004 | 1.3958 ± 0.0004 | 1.394 ± 0.0004 | 1.391 ± 0.0004 | 1.3887 ± 0.0004
x1 = 0.1002 | 1.4007 ± 0.0004 | 1.3989 ± 0.0004 | 1.3972 ± 0.0004 | 1.3944 ± 0.0004 | 1.3921 ± 0.0004
x1 = 0.1503 | 1.4029 ± 0.0004 | 1.4012 ± 0.0004 | 1.3996 ± 0.0004 | 1.3969 ± 0.0004 | 1.3948 ± 0.0004
x1 = 0.202 | 1.4048 ± 0.0004 | 1.4031 ± 0.0004 | 1.4015 ± 0.0004 | 1.3988 ± 0.0004 | 1.3968 ± 0.0004
x1 = 0.2502 | 1.4063 ± 0.0004 | 1.4045 ± 0.0004 | 1.4029 ± 0.0004 | 1.4004 ± 0.0004 | 1.3984 ± 0.0004
x1 = 0.3006 | 1.4078 ± 0.0004 | 1.4061 ± 0.0004 | 1.4045 ± 0.0004 | 1.4019 ± 0.0004 | 1.3999 ± 0.0004
x1 = 0.3502 | 1.4092 ± 0.0004 | 1.4074 ± 0.0004 | 1.4058 ± 0.0004 | 1.4032 ± 0.0004 | 1.4014 ± 0.0004
x1 = 0.4 | 1.4102 ± 0.0004 | 1.4084 ± 0.0004 | 1.4069 ± 0.0004 | 1.4044 ± 0.0004 | 1.4025 ± 0.0004
x1 = 0.4502 | 1.4115 ± 0.0004 | 1.4097 ± 0.0004 | 1.408 ± 0.0004 | 1.4054 ± 0.0004 | 1.4036 ± 0.0004
x1 = 0.5002 | 1.4125 ± 0.0004 | 1.4107 ± 0.0004 | 1.409 ± 0.0004 | 1.4065 ± 0.0004 | 1.4047 ± 0.0004
x1 = 0.5506 | 1.4133 ± 0.0004 | 1.4117 ± 0.0004 | 1.41 ± 0.0004 | 1.4075 ± 0.0004 | 1.4058 ± 0.0004
x1 = 0.6005 | 1.4142 ± 0.0004 | 1.4125 ± 0.0004 | 1.4109 ± 0.0004 | 1.4085 ± 0.0004 | 1.4068 ± 0.0004
x1 = 0.6502 | 1.4151 ± 0.0004 | 1.4134 ± 0.0004 | 1.4117 ± 0.0004 | 1.4093 ± 0.0004 | 1.4077 ± 0.0004
x1 = 0.7002 | 1.416 ± 0.0004 | 1.4143 ± 0.0004 | 1.4125 ± 0.0004 | 1.4101 ± 0.0004 | 1.4085 ± 0.0004
x1 = 0.7493 | 1.4168 ± 0.0004 | 1.415 ± 0.0004 | 1.4133 ± 0.0004 | 1.4109 ± 0.0004 | 1.4093 ± 0.0004
x1 = 0.8001 | 1.4176 ± 0.0004 | 1.4158 ± 0.0004 | 1.414 ± 0.0004 | 1.4117 ± 0.0004 | 1.4101 ± 0.0004
x1 = 0.8507 | 1.4183 ± 0.0004 | 1.4165 ± 0.0004 | 1.4148 ± 0.0004 | 1.4124 ± 0.0004 | 1.4109 ± 0.0004
x1 = 0.9009 | 1.4192 ± 0.0004 | 1.4174 ± 0.0004 | 1.4154 ± 0.0004 | 1.413 ± 0.0004 | 1.4116 ± 0.0004
x1 = 0.9504 | 1.4201 ± 0.0004 | 1.4182 ± 0.0004 | 1.4162 ± 0.0004 | 1.4138 ± 0.0004 | 1.4123 ± 0.0004
x1 = 1 | 1.421 ± 0.0004 | 1.419 ± 0.0004 | 1.4171 ± 0.0004 | 1.4146 ± 0.0004 | 1.4131 ± 0.0004
